The data set deals with T1, rOmpR (OmpR-6xHis) (UniProt A6TF28).
T1 sequence (looked up): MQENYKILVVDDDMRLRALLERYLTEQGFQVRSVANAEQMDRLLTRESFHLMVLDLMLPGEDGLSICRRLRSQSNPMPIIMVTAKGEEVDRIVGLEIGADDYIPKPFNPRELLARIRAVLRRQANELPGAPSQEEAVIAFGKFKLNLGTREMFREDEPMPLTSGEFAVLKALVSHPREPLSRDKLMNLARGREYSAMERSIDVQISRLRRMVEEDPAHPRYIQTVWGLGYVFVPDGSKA
The data set can be described thus: EMSA. To be noted: recombinant protein, residues 1-239, protein details: C-terminal His6 (pET28a), probe letters rebuilt from the primers and the genome. On the technique in general: In EMSA bound probe runs differently from free probe, usually more slowly.

Protein sequences can lack the tags named with them.

Turning to “CAATGATGAGCAGCATAGTGATGTTAAATTTTTATTATAAATGTCAATAAAAGGTTTTTATTGTATGTGAGGTTGTTTTAGATAATGTCCTCACTTTTTATCTTGAATATCAAAAGCATGAAAAATAGTGTTTTATGTCCTTGATTCATTAAAGGGCGCTTGAAATGTTTATTATGTGATCTGATGCACGCTTTAATTGCCGTGTTTCCTCGTTATTTGCAGTTTTGTATGACCGCTCACAGAACGCTGAAATGCACGGAAAGTTGTCCGTTGGAAAATAATTAAACATTTATTCACTATTTTGCTACTTATTGTTTGAAATCACGGGGCGTCACCGTATAATTTGTCCGCTTTTTGATGCTTGACTCTTCGTCTTAAAGGACGTTTTATACGACACGCGACATACCTCAAAGGGAGCAGG (double strand) [Patp1]”, the binding result (phosphorylated with 25 mM acetyl phosphate, 1 mM MgCl2, 0-20 uM rOmpR-P) is listed as “binds” and the binding result (unphosphorylated (no acetyl phosphate), 10 uM rOmpR) was “binds”.
